Measurements taken from patent publication US9974771B2 (priority 2016, dated 2018).

Tests used:
[1] = system: prion conversion activity in ScMEF cells (recombinant mouse PrP substrate); experiment: RT-QuIC prion conversion activity of lysates of long-term treated ScMEF cells; settings: AR-12 3 μM, tested until passage five after drug withdrawal, FIG. 6D
[2] = system: prion conversion activity in ScN2a cells (recombinant mouse PrP substrate); experiment: RT-QuIC prion conversion activity of lysates of long-term treated ScN2a cells; settings: FIG. 6B

SMILES | prion conversion activity (RT-QuIC) [1] | prion conversion activity (RT-QuIC) ([2]; AR-12 3 μM, tested until passage five after drug withdrawal) | prion conversion activity (RT-QuIC) ([2]; AR-14 2 μM, until passage five after drug withdrawal)
NCC(=O)Nc1ccc(-n2nc(C(F)(F)F)cc2-c2ccc3c(ccc4ccccc43)c2)cc1 [AR-12, 2-amino-N-(4-(5-(phenanthren-2-yl)-3-(trifluoromethyl)-1H-pyrazol-1-yl)phenyl)acetamide] | lost prion conversion activity | lost prion conversion activity | –
NCCCC[C@H](N)C(=O)Nc1ccc(-n2nc(C(F)(F)F)cc2-c2ccc3c(ccc4ccccc43)c2)cc1 [AR-14] | – | – | prion conversion activity is lost
